Assay [1] deals with mouse anti-BoNT/B antibodies. The assay is described as follows: BoNT/B peptide binding assay (solid-phase radioimmunoassay) with mouse antisera. The settings on record: outbred ICR mouse antisera 1:1000 and 1:2000 (vol/vol); FIG. 3; b343 lists peptides in decreasing amounts.
Assay [2] has as its system horse anti-BoNT/B antibodies. The assay is described as follows: BoNT/B peptide binding assay (solid-phase radioimmunoassay) with horse antisera. The conditions noted are these: horse antisera 1:500 and 1:1000 (vol/vol); FIG. 2; b337 lists peptides in decreasing amounts.
Assay [3] concerns human anti-pentavalent botulinum toxoid antibodies. Briefly: BoNT/B peptide binding assay (solid-phase radioimmunoassay, 125I-Protein A) with human antisera. The conditions noted are these: human IgG fraction 1:1000 and 1:2000 (vol/vol); FIG. 1; b330 lists peptides in decreasing order.

With C S V S Y L M K K M I P L A V E K L L, the “binding of mouse anti-BoNT/B antibodies, in words” value in assay [1] is recorded as “recognized”.

In the case of D I R E V I A N G E I I F K L D G D I, the “binding of mouse anti-BoNT/B antibodies, in words” value in assay [1] is listed as “Antibodies were bound”.

Take E E R Y K I Q S Y S E Y L K D F W G N: in assay [1], the “binding of mouse anti-BoNT/B antibodies, in words” value is reported as “Antibodies were bound”.

With E Y D E Q P T Y S C Q L L F K K D E E, in assay [2], the “binding of horse anti-BoNT/B antibodies, in words” value is recorded as “Antibodies were bound”.

Regarding F L L E S Y I D N K N K I I K T I D N, in assay [3], the “binding of human anti-pentavalent botulinum toxoid antibodies, in words” value is recorded as “bound low amounts of antibodies”.

With G E K F I I R R K S N S Q S I N D D I, in assay [1], the “binding of mouse anti-BoNT/B antibodies, in words” value is listed as “moderate-to-high amounts”.

As to G V E L N D K N Q F K L T S S A N S K, in assay [2], the “binding of horse anti-BoNT/B antibodies, in words” value is on record as “Antibodies were bound”.

With I L I E M F N K Y N S E I L N N I I L, the “binding of mouse anti-BoNT/B antibodies, in words” value in assay [1] is recorded as “Antibodies were bound”.

For the substance K D S P V G E I L T R S K Y N Q N S K, in assay [2], the “binding of horse anti-BoNT/B antibodies, in words” value was “Antibodies were bound”.

Consider “KRKPYNLKLGCNWQFIPKDEGWTE”, for which the “binding of horse anti-BoNT/B antibodies, in words” value in assay [2] is reported as “recognized”.

Consider K V Y S F F S M D Y I K T A N K V V E, for which, in assay [3], the “binding of human anti-pentavalent botulinum toxoid antibodies, in words” value is “bound low amounts of antibodies”.

Turning to N K V V E A G L F A G W V K Q I V N D, the “binding of human anti-pentavalent botulinum toxoid antibodies, in words” value in assay [3] is on record as “bound low amounts of antibodies”.

Turning to N N I I L N L R Y K D N N L I D L S G, the “binding of mouse anti-BoNT/B antibodies, in words” value in assay [1] is recorded as “Antibodies were bound”.

Take S A E Y E K S K V N K Y L K T I M P F: the “binding of horse anti-BoNT/B antibodies, in words” value in assay [2] was “Antibodies were bound”.

On to V E K L L D F D N T L K K N L L N Y I, for which the “binding of horse anti-BoNT/B antibodies, in words” value in assay [2] was “Antibodies were bound”.

For V N T Q F Y T I K E G M Y K A L N Y Q, in assay [2], the “binding of horse anti-BoNT/B antibodies, in words” value was “Antibodies were bound”.

As for Y F S I F N T E L S Q S N I E E R Y K, in assay [2], the “binding of horse anti-BoNT/B antibodies, in words” value is “recognized”.

The values are drawn from patent publication US7968304B2, “Determining and reducing immunoresistance to a botulinum toxin therapy using botulinum toxin B peptides” (dated 2011).
